The source of these data is publication PMC7247680, “Novel Indole-Based Hydrazones as Potent Inhibitors of the α-class Carbonic Anhydrase from Pathogenic Bacterium Vibrio cholerae” (International Journal of Molecular Sciences, 2020).

The experiment addresses VcCA (α-class carbonic anhydrase from Vibrio cholerae) (Vibrio cholerae, UniProt Q9KMP6). The experiment in a line: stopped-flow CO2 hydration assay, Cheng-Prusoff. The conditions noted are these: read-out: KI * (nM) / VcCA; CO2 substrate, pH 7.4, 10 mM Hepes, 0.1 M NaClO4, 25 °C, 15 min pre-incubation. The class given is biochemical.

In the case of `CCC(C)=NNC(=O)c1[nH]c2ccc(S(N)(=O)=O)cc2c1-c1ccccc1`, the Ki came out at 231 nM. Then `CCC(CC)=NNC(=O)c1[nH]c2ccc(S(N)(=O)=O)cc2c1-c1ccccc1`, with 860 nM.
